This note sets out measurements from patent US8013006B2, “Methods for treating hepatitis C” (PTC Therapeutics, Inc., priority 2004, dated 2011).

In the assay the test system is HCV-PV chimera.
As for `CCOc1ccc2c(C#N)c(-c3ccc(N(C)S(C)(=O)=O)cc3)n(C)c2c1`, the IC50 lay within 500 to 2000 nM.
On to `CCCOC(=O)Nc1ccc(-c2c(C#N)c3ccc(OC(F)F)cc3n2CC2CC2)cc1`, for which the concentration for half-maximal inhibition (IC50) is below 500 nM.
Take `CCn1c(-c2ccc(NC(=O)COC)cc2)c(C#N)c2ccc(OC(C)C)cc21`: the IC50 was below 500 nM.
As for `CCn1c(-c2ccc(NC(=O)C3CC3)cc2)c(C#N)c2ccc(OC)cc21` [Compound 81], the IC50 is below 500 nM.
Under `CCC(=O)Nc1ccc(C#Cc2c(C#N)c3ccc(OC)cc3n2CC)cc1` [Compound 82] stands below 500 nM.
Under `CCCn1c(-c2ccc(NS(=O)(=O)CC)cc2)c(C#N)c2ccc(OC)cc21` [Compound 85] stands below 500 nM; under `CCn1c(-c2ccc(NS(=O)(=O)C(C)C)cc2)c(C#N)c2ccc(OC)cc21` [Compound 88], below 500 nM.
`CCn1c(C#Cc2ccc(NC(=O)COC)cc2)c(C#N)c2ccc(OC)cc21` [Compound 139] came in with an IC50 below 500 nM.
Under `CCn1c(C#Cc2ccc(NC(=O)C3CCC3)cc2)c(C#N)c2ccc(OC)cc21` [Compound 153] stands above 2000 nM; under `CCCS(=O)(=O)Nc1ccc(-c2c(C#N)c3ccc(OC)cc3n2CC)cc1` [Compound 251], below 500 nM; under `CCCNC(=O)Nc1cccc(-c2c(C#N)c3ccc(OC)cc3n2CC)c1` [Compound 396], below 500 nM.
Then `CCn1c(-c2cccc(NC(=O)NC(C)C)c2)c(C#N)c2ccc(OC)cc21` [Compound 397], with below 500 nM.
`CCNC(=O)Nc1cccc(-c2c(C#N)c3ccc(OC)cc3n2CC)c1` [Compound 401] registered a concentration for half-maximal inhibition (IC50) below 500 nM.
Under `CCn1c(-c2ccc(NC(=O)C3CC3)cc2)c(C#N)c2ccc(OCCF)cc21` [Compound 544] stands below 500 nM; under `CCn1c(-c2ccc(NC(=O)OC)cc2)c(C#N)c2ccc(OCCF)cc21` [Compound 545], 500 to 2000 nM.

What is called IC50 is the point on the concentration scale where inhibition reaches its midpoint. A low value points to greater potency.
